A mixed list of measured activities; the numbers were collected in NIAID ChemDB.

Common to all: whole-cell or culture tests; species: Cytomegalovirus; measure: EC50

ECn is the concentration giving n% inhibition of infection, replication or growth. Blank or dashed fields: not listed here. Neighbouring rows are from separate reports.

compound,strain,read by,cells,value
Nc1nc(N)c2nnn(C[C@H]3CC[C@@H](CO)C3)c2n1,DAVIS,cytopathic effect,HEL,>200 µg/mL
Nc1ncnc2c1ncn2CCOCP(=O)(O)O,,cytopathic effect,HEL,>50 µg/mL
CCc1cn([C@H]2C[C@H](O)[C@@H](CO)O2)c(=O)[nH]c1=O,DAVIS/AD169,plaque count,HEL,>2000 µM
Nc1nc(N)c2ncn(C[C@H]3CC[C@@H](CO)C3)c2n1,DAVIS,cytopathic effect,HEL,>50 µg/mL
CC(=O)OC[C@H]1O[C@@H](n2c(Cl)nc3cc(Cl)c(Cl)cc32)[C@H](OC(C)=O)[C@@H]1OC(C)=O,,,,1.4 µM
Nc1cc(OCCOCP(=O)(O)O)nc(N)n1,DAVIS,cytopathic effect,,>190 µM
O=C(O)P(=O)(O)O,,,,19 µM
Nc1nc(Cl)c2ncn(C[C@H]3CC[C@@H](CO)C3)c2n1,AD169,cytopathic effect,HEL,>5 µg/mL
O=C([O-])CN(CCN(CC(=O)[O-])CC(=O)[O-])CCN(CC(=O)[O-])CC(=O)[O-].[Ca+2].[Na+].[Na+].[Na+],,,HFF,152 µM
C[C@@H]1CC[C@H]2[C@@H](C)C(=O)O[C@@H]3OC4(C)CC[C@@H]1[C@]32OO4,DAVIS,plaque count,HEL,>50 µg/mL
Nc1ncnc2c1ncn2C[C@@H](CO)OCP(=O)(O)O,AD169,cytopathic effect,,0.63 µM
Nc1ncnc2c1ncn2[C@@H]1C=C(CO)[C@@H](O)[C@H]1O,DAVIS,cytopathic effect,HEL,0.5 µg/mL
CCc1cn([C@H]2C[C@H](O)[C@@H](CO)S2)c(=O)[nH]c1=O,DAVIS/AD169,plaque count,HEL,>2000 µM
Nc1nc(N)c2ncn(CCOCP(=O)(O)O)c2n1,AD169,plaque count,HEL,10 µg/mL
Nc1nc2c(ncn2C[C@H]2CC[C@@H](CO)C2)c(=O)[nH]1,DAVIS,cytopathic effect,HEL,>200 µg/mL
C[C@H](Cn1cnc2c(N)ncnc21)OCP(=O)(O)O,DAVIS,cytopathic effect,,>350 µM
Nc1nc(Cl)c2nnn(C[C@H]3CC[C@@H](CO)C3)c2n1,DAVIS,cytopathic effect,HEL,>200 µg/mL
Nc1nc2c(ncn2CCOCP(=O)(O)O)c(=O)[nH]1,DAVIS,cytopathic effect,HEL,0.7 µg/mL
Nc1nc2cc(Cl)c(Cl)cc2n1[C@@H]1O[C@H](CO)[C@@H](O)[C@H]1O,,,,0.2 µM
Cc1cn(C[C@@H](CO)OCP(=O)(O)O)c(=O)[nH]c1=O,DAVIS,plaque count,HEL,100 µg/mL
O=c1[nH]c(=O)n([C@H]2C[C@H](O)[C@@H](CO)O2)cc1C1CCCCC1,DAVIS/AD169,plaque count,HEL,>1200 µM
Nc1nc(N)c2ncn(CC(CO)OCP(=O)(O)O)c2n1,DAVIS,plaque count,HEL,3 µg/mL
O=c1[nH]c(=O)n([C@H]2C[C@H](O)[C@@H](CO)O2)cc1C1CCC1,DAVIS/AD169,plaque count,HEL,>1500 µM

A second listing of 2 rows from above:

| compound | strain | read by | cells | value |
|---|---|---|---|---|
| Nc1ncnc2c1ncn2CCOCP(=O)(O)O |  | cytopathic effect | HEL | >50 µg/mL |
| CCc1cn([C@H]2C[C@H](O)[C@@H](CO)S2)c(=O)[nH]c1=O | DAVIS/AD169 | plaque count | HEL | >2000 µM |